Measured values reported in PMC7290494, “Repurposing Cancer Drugs Batimastat and Marimastat to Inhibit the Activity of a Group I Metalloprotease from the Venom of the Western Diamondback Rattlesnake, Crotalus atrox” (2020).

The chains behind the UniProt entries cited, without tags or fusion partners.
UniProt Q91401, whole entry, looked up: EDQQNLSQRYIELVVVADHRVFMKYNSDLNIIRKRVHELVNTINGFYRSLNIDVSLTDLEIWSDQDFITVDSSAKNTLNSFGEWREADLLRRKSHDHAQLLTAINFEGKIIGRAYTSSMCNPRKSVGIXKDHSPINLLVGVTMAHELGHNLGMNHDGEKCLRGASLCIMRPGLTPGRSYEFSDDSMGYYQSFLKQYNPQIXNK

Molecular target: CAMP-2 (Crotalus atrox, UniProt Q91401)
Assay: DQ-gelatin fluorogenic metalloprotease (collagenolytic) assay
Details: 2 μg CAMP-2; 5 min preincubation with inhibitor; DQ-gelatin 10 μg/mL; 37 °C; 30 min

Structure (SMILES): CNC(=O)[C@@H](NC(=O)[C@H](CC(C)C)[C@H](O)C(=O)NO)C(C)(C)C
- % inhibition at around 3 μM: Its collagenolytic activity is completely inhibited by batimastat and marimastat

Structure (SMILES): CNC(=O)[C@H](Cc1ccccc1)NC(=O)[C@H](CC(C)C)[C@H](CSc1cccs1)C(=O)NO
- % inhibition at around 3 μM: Its collagenolytic activity is completely inhibited by batimastat and marimastat
